Measured values from several laboratories, pooled; numbers as filed in NIAID ChemDB.

Shared fields: growth or infection tests; organism: Mycobacterium tuberculosis

Zone: diameter of growth inhibition. MIC bound comes from a single tested concentration. Inhibition is in % at the dose shown (toxicity tests: loss of growth or viability). Blank or dashed fields: not listed here. ECn is the concentration giving n% inhibition of infection, replication or growth. MIC50, MIC90 and the like: level of inhibition, or share of isolates inhibited. Conditions beyond the fields shown may differ between rows.

smiles	mutations	setting	strain or isolate	method	tested at	measure	result
C1CCCC(N2CCCN(C3CCCCCCC3)CC2)CCC1	-	-	H37Rv	-	-	MIC	12.5 µM
CCCCSc1nnnn1-c1ccc(C)cc1	-	-	H37Rv	-	-	MIC	61 µM
CC1=NN(c2ccc3c(c2)Nc2ccccc2S3)C2NC(=S)NC(c3ccc(Cl)cc3)C12	-	-	H37Rv	BACTEC / broth dilution / radiometric	-	MIC	>6.25 µg/mL
O=C(N/N=C/c1cc(Cl)ccc1O)C(=O)N/N=C/c1cc(Cl)ccc1O	-	-	H37Rv	BACTEC	-	MIC bound	>12.5 µg/mL
Cc1n[nH]c(=S)n1/N=C/c1cc(F)ccc1F	-	-	H37Rv	agar diffusion / visual reading	10000 µg/mL	zone	13.5 mm
CCOc1ccc2ccccc2c1C(=O)N[C@@H]1C(=O)N2[C@@H]1SC(C)(C)[C@@H]2C(=O)O	-	-	Isolate 2	-	-	MIC	>16 µg/mL
CCCCN(CCCC)C(=S)C(N)=S	-	-	-	-	-	MIC	62 µM
COc1cccc2c1C(=O)c1c(O)c3c(c(O)c1C2=O)C[C@@](O)(/C(C)=N/NC(=O)NN)C[C@@H]3OC1CC(N)C(O)C(C)O1.Cl	-	-	H37Rv	BACTEC	12.5 µg/mL	inhibition	12%
O=[N+]([O-])c1ncn2c1OC(CCl)C2	-	-	H37Rv	-	-	MIC	>10 µg/mL
CCCSc1nnc(-c2ncc([N+](=O)[O-])n2C)s1	-	-	H37Rv	-	-	MIC	3.13 µg/mL
c1cnc2c(c1)ccc1cccnc12	-	-	H37Rv	resazurin / absorbance	-	MIC90	11.8 µM
CC(C)(C)C1CCc2onc(C(=O)Nc3cnn(Cc4ccc(C(=O)NCCc5ccccc5)cc4)c3)c2C1	-	-	Rv3602c	-	-	MIC	>128 µM
C#CCN(Cc1ccc2nc(N)[nH]c(=O)c2c1)c1ccc(C(=O)NC(CCC(=O)O)C(=O)O)cc1	-	-	H37Rv	BACTEC	12.5 µg/mL	inhibition	0%
C[C@@H]1CN(c2nc3c(cc2F)c(=O)c(C(=O)O)cn3C(C)(C)C)C[C@H](C)N1	-	-	-	-	-	MIC	0.78 µg/mL
C/C(=N\NC(=O)c1ccccc1O)c1ccc(/C(C)=N/NC(=O)c2ccccc2O)c2nc3cc(C)c(C)cc3nc12	-	-	H37Rv	BACTEC	12.5 µg/mL	inhibition	3%
COc1cccc(CSc2ccccn2)c1	-	-	H37Rv	-	-	MIC90	>6.25 µg/mL
O=C(NCc1ccco1)C(=O)N/N=C/c1ccccc1O	-	-	H37Rv	BACTEC	-	MIC bound	>12.5 µg/mL
NC[C@H]1O[C@H](O[C@H]2[C@H](O)[C@@H](O[C@H]3O[C@H](CO)[C@@H](O)[C@H](N)[C@H]3O)[C@H](N)C[C@@H]2N)[C@H](O)[C@@H](O)[C@@H]1O	-	-	H37Ra	-	-	MIC	2.5 µg/mL
CCCSc1nnc(-c2ccc([N+](=O)[O-])o2)s1	-	-	H37Rv	-	6.25 µg/mL	inhibition	74%
NNC(=O)c1ccncc1	-	-	-	-	-	MIC	7 µM
O=C1c2cc(Cl)ccc2OP(=O)(c2ccccc2)N1c1ccc(C(F)(F)F)cc1	-	14 d	Praha 4	-	-	MIC	1 µM
O=C(Cc1cccs1)N[C@@H]1C(=O)N2C(C(=O)[O-])=C(C[n+]3ccccc3)CS[C@H]12	-	-	H37Ra	-	-	MIC	8 µg/mL
OCC(O)C(O)CO	-	-	H37Rv	BACTEC	12.5 µg/mL	inhibition	8%
CC(C)(C)C1CCc2onc(C(=O)Nc3cnn(Cc4ccccc4Br)c3)c2C1	-	-	Rv3602c	resazurin	-	MIC	>128 µM
Cc1cc(-c2cccs2)oc(=O)c1NC(=O)c1ccccc1	-	-	H37Rv	resazurin	6.25 µg/mL	inhibition	-12%
COc1ccc(C2NC(=S)NC3C2C(C)=NN3c2ccc3c(c2)Nc2ccccc2S3)cc1	-	-	H37Rv	BACTEC / broth dilution / radiometric	-	MIC	>6.25 µg/mL
Cc1ccc(-n2nnnc2SC(C)C)cc1	-	-	H37Rv	-	-	MIC	250 µM
CC(C)(C)C1CCc2onc(C(=O)Nc3cnn(Cc4ccc(C(=O)O)cc4)c3)c2C1	-	-	Rv3602c	resazurin	-	MIC	>128 µM
CCCN(CCC)C(=S)C(N)=S	-	-	-	-	-	MIC	31 µM
Cc1onc(-c2c(Cl)cccc2Cl)c1C(=O)Nc1ccccc1CC1c2ccccc2CCN1C	-	-	H37Rv	resazurin	-	MIC bound	>6.25 µg/mL
CC1COc2c(N3CCN(C)CC3)c(F)cc3c(=O)c(C(=O)O)cn1c23	-	-	H37Ra	-	-	MIC	1 µg/mL
Cc1cc(O)c2c(c1)C(=O)C(c1c(C)cc3c(c1O)C(=O)C=CC3=O)=CC2=O	-	-	H37Rv	-	-	MIC	100 µg/mL
C=CCSc1ccc(C(N)=S)cc1	-	-	H37Rv	-	-	MIC	334 µM
CC(C)[C@@H]1C2[C@H](O)[C@]3(O)[C@@H](C)CC[C@@H]4[C@@H](C)C[C@@H]1[C@@]43C(=O)C2(C)C	-	-	H37Rv	-	12.5 µg/mL	inhibition	17%
CCCCSc1nnnn1-c1c(C)cc(C)cc1C	-	-	H37Rv	-	-	MIC	>1000 µM
CC1CN(c2nc3c(cc2F)c(=O)c(C(=O)O)cn3C(C)(C)C)CCN1	-	-	-	-	-	MIC	0.78 µg/mL
O=C(Nc1ccc(I)cc1)NC12CCC3CC(CC1C3)C2	-	-	H37Rv	-	-	MIC	0.6 µg/mL
C=C(C)[C@@H]1CC=C(CN2CCCN(CC3=CC[C@H](C(=C)C)CC3)CC2)CC1	-	-	H37Rv	-	-	MIC	12.5 µM
COc1ccc(CSc2ncnc3nc[nH]c23)cc1	-	-	H37Rv	-	-	MIC90	>6.25 µg/mL
CC1(C)N=C(NN=C2CCCCC2)SP1(=O)NNc1ncccn1	-	-	H37Rv	BACTEC	12.5 µg/mL	inhibition	0%
COc1ccccc1CSc1ncccn1	-	-	H37Rv	-	-	MIC90	>6.25 µg/mL
C[N+](C)(C)CC(=O)N/N=C(\Cc1nc2ccc([N+](=O)[O-])cc2[nH]c1=O)C(=O)Nc1cc(C(F)(F)F)ccc1Cl.[Cl-]	-	-	H37Rv	BACTEC	-	MIC bound	>12.5 µg/mL
N=NC(=S)NC(=O)c1ccncc1	-	-	H37Rv	-	-	MIC	5 µg/mL
CCSc1nnnn1-c1c(C)cc(C)cc1C	-	-	H37Rv	-	-	MIC	>1000 µM
Cc1n[nH]c(=S)n1/N=C/c1ccc(Cl)c(F)c1	-	-	H37Rv	agar diffusion / visual reading	10000 µg/mL	zone	13.5 mm
O=[N+]([O-])c1ccc(-c2nnc(SCc3ccccc3[N+](=O)[O-])s2)o1	-	-	H37Rv	-	-	MIC	6.25 µg/mL
CCCC(C)Sc1ccc(C(=S)NCC)cc1	-	-	H37Rv	-	-	MIC	>300 µM
CC(C)=CCC/C(C)=C/COc1ccc(/C=C2\C(=O)N(O)[C@@H](C)C(=O)N2O)cc1	-	-	CS-R	-	-	MIC	12.5 µg/mL
CC(C)(C)C(=O)Nc1ccc(S(=O)(=O)c2ccc(N)cc2)cc1	-	-	H37Rv	-	-	MIC	10 µg/mL
O=C(NCC(=O)N1CCN(c2ccc(N3C[C@H](Cn4ccnn4)OC3=O)cc2F)CC1)C1=CC=C([N+](=O)[O-])C1	Rifampicin-resistant	-	SRI 1367	broth dilution / visual reading	0.46 µM	inhibition	58%
Clc1nc(Sc2ccccc2Cl)c2[nH]cnc2n1	-	-	H37Ra	-	-	MIC	>12.8 µg/mL
CC(C)Sc1ccc(/C=C/C(N)=S)cc1	-	-	H37Rv	-	-	MIC	170 µM
CN1C[C@H](c2ccccc2)[C@]2(CC3C=CC=CC3C2=O)[C@]12C(=O)c1cccc3cccc2c13	-	-	H37Rv	broth dilution / resazurin	-	EC90	>100 µM
COc1ccc(-c2csc(CN=Cc3cn(Cc4ccc(Cl)cc4Cl)c4ccccc34)n2)cc1OC	-	-	H37Rv	agar	-	MIC	>12.5 µg/mL
C=CC(C)(O)/C=C/C=C(\C)C(CC1OC1(C)C)OC(=O)/C(C)=C/C	-	-	H37Rv	BACTEC	12.5 µg/mL	inhibition	22%
CCCSc1ccc(C(=S)NCC)cc1	-	-	H37Rv	-	-	MIC	334 µM
Clc1ccc(Sc2nc(Cl)nc3nc[nH]c23)cc1	-	-	H37Rv	-	-	MIC90	>6.25 µg/mL
CC(C)(C)C(=O)NNC(=O)c1ccncc1	-	-	H37Rv	-	-	MIC	5 µg/mL
CC(C)CC(NC(=O)C(Cc1ccccc1)NC(=O)OCc1ccccc1)C(=O)NC(C)C(=O)O	-	-	H37Rv	BACTEC	-	MIC bound	>12.5 µg/mL
O=C1c2ccccc2OP(=O)(c2ccccc2)N1c1ccccc1	-	7 d	My 331/88	-	-	MIC	>500 µM
Cn1c([N+](=O)[O-])cnc1-c1nnc(SCc2cccc([N+](=O)[O-])c2)s1	-	-	H37Rv	-	-	MIC	>6.25 µg/mL
CC(C)(C)OC(=O)NC1CC2(C=C(Cl)C(=O)C(Cl)=C2)OC1=O	-	-	H37Rv	BACTEC	12.5 µg/mL	inhibition	-14%
O=C1c2cc(Cl)ccc2OP(=O)(c2ccccc2)N1c1ccc(Cl)c(Cl)c1	-	14 d	My 331/88	-	-	MIC	2 µM
NC(=S)C(=S)N1CCCCC1	-	-	-	-	-	MIC	125 µM
CCCCCC/C=C/CCCCCCCCCc1cc(O)cc(OC)c1O	-	-	H37Rv	BACTEC	-	MIC	≥12.5 µg/mL
O=C(O)c1cn(C2CC2)c2cc(N3CCNCC3)c(F)cc2c1=O	-	-	H37Rv	agar diffusion / visual reading	10000 µg/mL	zone	27 mm
O=c1nc(SCc2cccnc2)c2[nH]cnc2[nH]1	-	-	H37Ra	-	-	MIC	>12.8 µg/mL
Cc1cc(NS(=O)(=O)c2ccc(N=Nc3c(Nc4ccccc4)nn(-c4ccc(S(=O)(=O)Nc5ccncn5)cc4)c3C)cc2)no1	-	-	H37Rv	resazurin	-	MIC bound	>6.25 µg/mL
O=C(Nc1cccc(C(F)(F)F)c1)NC12CCC3CC(CC1C3)C2	-	-	H37Rv	-	-	MIC	0.8 µg/mL
CO[C@H]1/C=C/O[C@@]2(C)Oc3c(C)c(O)c4c(O)c(c(/C=N/N5CCN(C)CC5)c(O)c4c3C2=O)NC(=O)/C(C)=C\C=C\[C@H](C)[C@H](O)[C@@H](C)[C@@H](O)[C@@H](C)[C@H](OC(C)=O)[C@@H]1C	-	-	H37Ra	-	-	MIC	0.025 µg/mL
COC1CC(=O)c2cccc(O)c2C1=O	-	-	90-221387	-	-	MIC	3.125 µg/mL
ClC1c2ccccc2-c2nsnc2C1Cl	-	-	H37Rv	BACTEC	-	MIC bound	>6.25 µg/mL
CCCSc1nnnn1-c1ccc(C)c(C)c1	-	-	H37Rv	-	-	MIC	125 µM
CC(C)(C)C1CCc2onc(C(=O)Nc3cn[nH]c3)c2C1	-	-	Rv3602c	resazurin	-	MIC	>128 µM
CCOC(=O)c1cc(NC(=S)NC(=O)c2cccs2)c(NC(C)=O)o1	-	-	H37Rv	BACTEC	-	MIC bound	>12.5 µg/mL
CCNC(=S)c1ccc(SC(C)CC)cc1	-	-	H37Rv	-	-	MIC	315 µM
O=C(Nc1ccc(C(F)(F)F)cc1)c1cc(Cl)ccc1OP(=O)(c1ccccc1)c1ccccc1	-	14 d	Praha 4	-	-	MIC	1 µM
Nc1cccc2c1[nH]c(=O)c1ccccc12	-	-	H37Rv	BACTEC	-	MIC bound	≤12.5 µg/mL
Cc1n[nH]c(=S)n1/N=C/c1cc(F)ccc1Cl	-	-	H37Rv	agar diffusion / visual reading	10000 µg/mL	zone	8.5 mm
CCC(C)Sc1ccc(C(N)=S)cc1	-	-	H37Rv	-	-	MIC	311 µM
Cc1n[nH]c(=S)n1/N=C/c1ccc(F)cc1F	-	-	H37Rv	agar diffusion / visual reading	10000 µg/mL	zone	13 mm
CCC1Cn2cc([N+](=O)[O-])nc2O1	-	-	H37Rv	-	-	MIC	0.15 µg/mL
CC1=NN(c2ccc3c(c2)Nc2ccccc2S3)C2NC(=S)NC(c3ccccc3O)C12	-	-	H37Rv	BACTEC / broth dilution / radiometric	-	MIC	<6.25 µg/mL
O=C(Nc1ccc(C(F)(F)F)cc1)c1cc(Br)ccc1OP(=O)(c1ccccc1)c1ccccc1	-	14 d	My 331/88	-	-	MIC	2 µM
CCCCCCC(C)c1cc(CN(C)C)c(O)c(C2CCCCC2)c1	-	-	H37Rv	BACTEC	-	MIC bound	>12.5 µg/mL
CC1=NN(c2ccc3c(c2)Nc2ccccc2S3)C2NC(=S)NC(c3ccc(O)cc3)C12	-	-	H37Rv	BACTEC / broth dilution / radiometric	-	MIC	>6.25 µg/mL
O=C1c2cc(Br)ccc2OP(=O)(c2ccccc2)N1c1ccc(C(F)(F)F)cc1	-	14 d	9449/2007	-	-	MIC	1 µM

Repeating the first 8 entries:

smiles,mutations,setting,strain or isolate,method,tested at,measure,result
C1CCCC(N2CCCN(C3CCCCCCC3)CC2)CCC1,-,-,H37Rv,-,-,MIC,12.5 µM
CCCCSc1nnnn1-c1ccc(C)cc1,-,-,H37Rv,-,-,MIC,61 µM
CC1=NN(c2ccc3c(c2)Nc2ccccc2S3)C2NC(=S)NC(c3ccc(Cl)cc3)C12,-,-,H37Rv,BACTEC / broth dilution / radiometric,-,MIC,>6.25 µg/mL
O=C(N/N=C/c1cc(Cl)ccc1O)C(=O)N/N=C/c1cc(Cl)ccc1O,-,-,H37Rv,BACTEC,-,MIC bound,>12.5 µg/mL
Cc1n[nH]c(=S)n1/N=C/c1cc(F)ccc1F,-,-,H37Rv,agar diffusion / visual reading,10000 µg/mL,zone,13.5 mm
CCOc1ccc2ccccc2c1C(=O)N[C@@H]1C(=O)N2[C@@H]1SC(C)(C)[C@@H]2C(=O)O,-,-,Isolate 2,-,-,MIC,>16 µg/mL
CCCCN(CCCC)C(=S)C(N)=S,-,-,-,-,-,MIC,62 µM
COc1cccc2c1C(=O)c1c(O)c3c(c(O)c1C2=O)C[C@@](O)(/C(C)=N/NC(=O)NN)C[C@@H]3OC1CC(N)C(O)C(C)O1.Cl,-,-,H37Rv,BACTEC,12.5 µg/mL,inhibition,12%